Data as given in PubChem BioAssay AID1259414 (Drosophila RNAi Screening Center, 2018)
The deposit covers about 24,000 reagents; shown is an unselected part of those that have a named target and a result. Over the whole deposit, about 1,210 (5%) got an active call. 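Inactive calls also include excluded dsRNAs with several or no targets, genes unexpressed in JW18, and well A1, regardless of score.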 The numbers tell different reagents against one gene apart. A plus sign joins genes that one reagent is predicted to hit.

Purpose: 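Fly genes that alter Wolbachia amount inside host cells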 (primary screen)
Cells: Drosophila JW18 cells infected with Wolbachia
Knock-down reagent: long dsRNA against Drosophila genes, 0.25 µg dsRNA per well of a 384-well plate
Duration: 5 days
Conditions: cells persistently infected with Wolbachia before knock-down; no added drug
Measured: 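Imaged fluorescence in situ signal for Wolbachia 23S rRNA per DAPI-counted host cell, given as a robust z-score within each plate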
Scale: Wolbachia per cell robust z: higher = more Wolbachia per host cell than the plate typical
Rule for the call: 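Hit when robust z is 1.5 or more, or -1.5 or less, in at least two of three replicates; excludes dsRNAs with several or no targets, genes not expressed in JW18 and well A1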

gene | reagent | Wolbachia per cell robust z, rep 1 | Wolbachia per cell robust z, rep 2 | Wolbachia per cell robust z, rep 3 | activity call
Tlk (Tousled-like kinase) | 1 | 1.25 | -3.52 | 1.12 | inactive
Tlk (Tousled-like kinase) | 2 | 0.565 | 1.81 | 1.74 | inactive
Tlk (Tousled-like kinase) | 3 | 2.99 | -0.674 | 1.7 | inactive
Tlk (Tousled-like kinase) | 4 | -1.23 | 0.0448 | -1.63 | inactive
Sesn (Sestrin) | 1 | 0.827 | -2 | -0.58 | inactive
Sesn (Sestrin) | 2 | -0.136 | 0.189 | -6.05 | inactive
Sesn (Sestrin) | 3 | -1.37 | -3.08 | 0.777 | inactive
Fdh (Formaldehyde dehydrogenase) | 1 | -1.7 | -0.863 | -0.642 | inactive
CG33299 | 1 | -1.07 | -1.83 | -2.81 | inactive
CG33299 | 2 | -0.721 | -0.701 | 0.255 | inactive
CG42360 | 1 | 0.0596 | 0.31 | -0.00931 | inactive
AP-2alpha (Adaptor Protein complex 2, alpha subunit) | 1 | 3.45 | 0.413 | -5.1 | inactive
AP-2alpha (Adaptor Protein complex 2, alpha subunit) | 2 | 1.27 | 1.15 | 1.47 | inactive
lncRNA:Hsromega (Heat shock RNA omega) | 1 | -0.318 | -1.15 | -0.31 | inactive
lncRNA:Hsromega (Heat shock RNA omega) | 2 | 0.016 | 0.512 | 0.519 | inactive
lncRNA:CR34335 (long non-coding RNA:CR34335) | 1 | -0.186 | 0.759 | -0.00133 | inactive
Acp33A (Accessory gland-specific peptide 33A) | 1 | -6.51 | 0.373 | -0.0965 | inactive
CG13720 | 1 | 0.438 | -0.979 | 0.501 | inactive
CG13720 | 2 | 0.267 | -1.41 | -0.293 | inactive
CG12547 | 1 | 0.172 | 0.275 | -0.157 | inactive
RhoGAP100F (Rho GTPase activating protein at 100F) | 1 | 0.637 | -0.792 | 0.44 | inactive
RhoGAP100F (Rho GTPase activating protein at 100F) | 2 | 0.601 | -0.31 | 1.84 | inactive
Su(z)12 | 1 | 0.148 | -2.08 | -0.288 | inactive
Su(z)12 | 2 | 1.45 | -1.34 | 2.82 | inactive
GMF (Glia maturation factor) | 1 | 0.208 | -1.39 | -0.608 | inactive
CG7275 | 1 | 0.928 | 0.217 | -0.0565 | inactive
Mal-A6 (Maltase A6) | 1 | -0.268 | -0.811 | -0.396 | inactive
Mal-A6 (Maltase A6) | 2 | -0.374 | -0.462 | -0.272 | inactive
galene | 1 | 0.67 | 0.816 | 0.271 | inactive
galene | 2 | -0.315 | -3.45 | -3.41 | active
FASN1 (Fatty acid synthase 1) | 1 | 2.38 | 1.09 | 5.93 | active
FASN1 (Fatty acid synthase 1) | 2 | 1.55 | 2.58 | 2.14 | active
CG1486 | 1 | 0.41 | 1.98 | 0.885 | inactive
CG1486 | 2 | 1.8 | 1.04 | -0.304 | inactive
sced (scrambled) | 1 | 0.0056 | 1.06 | 1.41 | inactive
Crys (Crystallin) | 1 | -2.22 | -0.0574 | -1.22 | inactive
Crys (Crystallin) | 2 | 1.51 | 0.961 | 0.901 | inactive
INPP5E (Inositol polyphosphate 5-phosphatase E) | 1 | -2.08 | -4.71 | -1.96 | active
CG10019 | 1 | 0.0454 | -0.382 | 1.1 | inactive
CG10019 | 2 | -4.33 | 0.0329 | -0.144 | inactive
CG18480 | 1 | -1.12 | -1.67 | 0.532 | inactive
CG18480 | 2 | -1.99 | -1.51 | 0.563 | inactive
Ucp4C (Uncoupling protein 4C) | 1 | -7.74 | 0.126 | -7.82 | inactive
Ucp4C (Uncoupling protein 4C) | 2 | 0.218 | -0.775 | 0.18 | inactive
Archease | 1 | 0.062 | -0.0445 | 1.02 | inactive

A portion from the list above, for reference:
gene | reagent | Wolbachia per cell robust z, rep 1 | Wolbachia per cell robust z, rep 2 | Wolbachia per cell robust z, rep 3 | activity call
CG13720 | 1 | 0.438 | -0.979 | 0.501 | inactive
CG13720 | 2 | 0.267 | -1.41 | -0.293 | inactive
CG12547 | 1 | 0.172 | 0.275 | -0.157 | inactive
RhoGAP100F (Rho GTPase activating protein at 100F) | 1 | 0.637 | -0.792 | 0.44 | inactive
RhoGAP100F (Rho GTPase activating protein at 100F) | 2 | 0.601 | -0.31 | 1.84 | inactive
Su(z)12 | 1 | 0.148 | -2.08 | -0.288 | inactive
Su(z)12 | 2 | 1.45 | -1.34 | 2.82 | inactive
GMF (Glia maturation factor) | 1 | 0.208 | -1.39 | -0.608 | inactive
CG7275 | 1 | 0.928 | 0.217 | -0.0565 | inactive
Mal-A6 (Maltase A6) | 1 | -0.268 | -0.811 | -0.396 | inactive

Continued:
gene | reagent | Wolbachia per cell robust z, rep 1 | Wolbachia per cell robust z, rep 2 | Wolbachia per cell robust z, rep 3 | activity call
CG15423 | 1 | -0.172 | -2.17 | 1.69 | inactive
CG15423 | 2 | 0.327 | 0.147 | -0.335 | inactive
RpS11 (Ribosomal protein S11) | 1 | 2.64 | 2.66 | 2.37 | active
RpS11 (Ribosomal protein S11) | 2 | -0.527 | -0.087 | 0.77 | inactive
boss (bride of sevenless) | 1 | 0.389 | 0.628 | 0.499 | inactive
boss (bride of sevenless) | 2 | 0.151 | 0.044 | -0.158 | inactive
Rbf (Retinoblastoma-family protein) | 1 | -1.7 | -0.743 | -0.663 | inactive
Rbf (Retinoblastoma-family protein) | 2 | -0.904 | 0.285 | 0.342 | inactive
CG31029 | 1 | -2.11 | 0.378 | -1.21 | inactive
CG31029 | 2 | -0.187 | 1 | 1.41 | inactive
CG3808 | 1 | -1.07 | 0.741 | 1.09 | inactive
CG1275 | 1 | 0.219 | 0.195 | 0.985 | inactive
CG5770 | 1 | -0.183 | -1.15 | -0.709 | inactive
CG5770 | 2 | 0.636 | -0.148 | -2.11 | inactive
CG9410 + CG15908 | 1 | -0.191 | -7.11 | 0.237 | inactive
Nlg4 (Neuroligin 4) | 1 | -1.08 | 0.411 | -0.0686 | inactive
Nlg4 (Neuroligin 4) | 2 | -0.83 | -0.163 | -0.755 | inactive
Nlg4 (Neuroligin 4) | 3 | -0.124 | -1.04 | -0.799 | inactive
Nlg4 (Neuroligin 4) | 4 | -0.653 | -1.04 | -0.319 | inactive
Nlg4 (Neuroligin 4) | 5 | -2.01 | -0.905 | -1.12 | inactive
Nlg4 (Neuroligin 4) | 6 | 0.03 | -0.0417 | 0.577 | inactive
MKP-4 (MAPK Phosphatase 4) | 1 | -1.72 | -1.3 | -0.275 | inactive
MKP-4 (MAPK Phosphatase 4) | 2 | 1.11 | -0.617 | -11.3 | inactive
